# ChEMBL document CHEMBL1268892, “Antidotes to anthrax lethal factor intoxication. Part 1: Discovery of potent lethal factor inhibitors with in vivo efficacy” (Bioorg Med Chem Lett, 2010)
# System: Rattus norvegicus
# Assay: Inhibition of lethal factor-induced toxicity in Fischer 344 rat assessed as increase in median survival time at 10 mg/kg, iv relative to control
smiles,measurement,value
Cc1cc(CNCCCC[C@@H](Nc2cc(C)c(F)c(C)c2)C(=O)NO)ccc1F,Activity,100%
